In patent US20240382467A1, “COMPOSITIONS AND METHODS FOR TREATING AND/OR PREVENTING LUNG INJURY” (published 2024):

Tested on: K18-hACE mice
Assay: BALF cytokine and chemokine composition by Luminex, S1SP intratracheal and KVX-053 (Example 15, Table 3)
Details: 5 μg S1SP intratracheally; saline or 20 mg/kg KVX-053 1 h later; 72 h; mean ± SD, N = 3

Structure (SMILES): N=C1C(=O)NC(=O)c2cc(-c3ccccc3)sc21
- EOTAXIN in BALF: 3.98 ± 2.74 pg/mL
- GM-CSF in BALF: 1.30 ± 0.01 pg/mL
- IFNg in BALF: 0.37 ± 0.06 pg/mL
- IL-1β in BALF: 0.59 ± 0.00< pg/mL
- IL-6 in BALF: 85.54 ± 44.95 pg/mL
- IL-12p70 in BALF: 0.97 ± 0.00< pg/mL
- IL-17 in BALF: 0.23 ± 0.02 pg/mL
- KC (Keratinocytes-derived chemokine) in BALF: 20.35 ± 1.97 pg/mL
- MCP-1 (CCL3 Antigen) in BALF: 30.02 ± 33.91 pg/mL
- MIP-1α in BALF: 44.21 ± 17.10 pg/mL
- RANTES in BALF: 2.68 ± 3.00 pg/mL
- TNF-α in BALF: 3.77 ± 3.10 pg/mL
- VEGF in BALF: 2.54 ± 1.58 pg/mL
